Laboratory results from patent publication US20110045139A1, “FERMENTED SAUSAGE AND METHODS OF MAKING SAME” (priority 2009, published 2011).

System: extracellular and intracellular fractions of E. coli O157:H7, S. carnosus and P. pentosaceus
Assay: Evaluation of extra- and intracellular enzymatic activity on sinalbin
Assay type: biochemical
Settings: sinalbin 0.5 mg/ml, 6 days

O=S(=O)(O)O/N=C(/Cc1ccc(O)cc1)S[C@@H]1O[C@H](CO)[C@@H](O)[C@H](O)[C@H]1O [sinalbin]
sinalbin degradation by extracellular culture filtrates (culture supernatant): no extracellular myrosinase-like activity was found | sinalbin degradation by intracellular bacterial fractions (sonicated cells): intracellular enzymatic activity capable of degrading sinalbin
